Results of unrelated studies side by side (data: NIAID ChemDB).

Common to all: tests in culture; agent: Mycobacterium tuberculosis

MIC bound comes from a single tested concentration. Lines come from different laboratories, so protocols vary. MIC50, MIC90 and the like: level of inhibition, or share of isolates inhibited. An empty or dashed field is not shown. Percent inhibition refers to the dose given; in toxicity tests it is the harm to the cells.

SMILES | read by | read-out | dose | strain | result
O=C(O)c1sc(-c2ccncc2)nc1OCc1cnnn1-c1cc2ccc(O)cc2oc1=O | resazurin | MIC |  | H37Rv | 26.97 µM
CC(C)N=c1cc2n(-c3ccc(Cl)cc3)c3ccccc3nc-2cc1Nc1ccc(Cl)cc1 | resazurin | MIC |  | H37Rv | 0.24 µg/mL
O=C(/C=C/C=C/c1ccc2c(c1)OCO2)NC12CC3CC(CC(C3)C1)C2 | resazurin | MIC |  | H37Rv | 0.36 µM
Cc1c(NC(=O)CCl)c(=O)n(-c2ccccc2)n1C | BACTEC | MIC bound |  | H37Rv | >12.5 µg/mL
CC[C@H]1OC(=O)[C@H](C)C(=O)[C@H](C)[C@@H](O[C@@H]2O[C@H](C)C[C@H](N(C)C)[C@H]2O)[C@@](C)(C/C=C/c2cnc3ccccc3c2)C[C@@H](C)C(=O)[C@H](C)[C@H]2NC(=O)O[C@@]21C |  | MIC |  |  | 4 µM
Cc1ccc(C2=NNc3c4ccccc4c4c5cc(C)ccc5nc-4n3C2)cc1 | broth dilution / resazurin | MIC |  | H37Rv | 12.5 µg/mL
CO[C@H]1/C=C/O[C@@]2(C)Oc3c(C)c(O)c4c(O)c(c(/C=N/N5CCN(C)CC5)c(O)c4c3C2=O)NC(=O)/C(C)=C\C=C\[C@H](C)[C@H](O)[C@@H](C)[C@@H](O)[C@@H](C)[C@H](OC(C)=O)[C@@H]1C | resazurin | MIC |  | H37Rv | 0.23 µM
NNC(=O)c1ccncc1 | resazurin | MIC |  | H37Rv | 0.05 µg/mL
CCC1CCC[C@H](NC(=O)/C=C/C=C/c2ccc3c(c2)OCO3)C1 | resazurin | MIC |  | H37Rv | 1.6 µM
S=C(S)N1CCCC1 | BACTEC | MIC |  | H37Rv | 0.4 µg/mL
Cc1ccc2[nH]c3c(c2c1)c1ccccc1c1nnc(C(C)(C)C)n13 | broth dilution / resazurin | MIC |  | H37Rv | 12.5 µg/mL
CC(C)CC(NC(=O)C(CO)NC(=O)OCc1ccccc1)C(=O)NC(Cc1ccc(O)cc1)C(=O)NN | BACTEC | inhibition | 12.5 µg/mL | H37Rv | -15%
Cc1ccc(NC(=O)c2cnc(C(C)(C)C)c(Cl)n2)cc1I |  | MIC |  | H37Rv | 4 µg/mL
CCCCCCCCCCCCCCCC(=O)N(O)CCCC[C@H](NC(=O)[C@@H]1COC(c2ccccc2O)=N1)C(=O)NC[C@H](NC(=O)OC(C)(C)C)C(=O)NC1CCCCN(O)C1=O |  | MIC |  | H37Rv | <0.2 µg/mL
O=C(NCCCl)N1CCC(CN=c2cc3n(-c4ccc(Cl)cc4)c4ccccc4nc-3cc2Nc2ccc(Cl)cc2)CC1 |  | MIC |  | PZA-R | 0.1 µg/mL
C[C@@H]1[C@@H](C)C(C)(C)[C@@H](C)C[C@H]1NC(=O)/C=C/C=C/c1ccc2c(c1)OCO2 | resazurin | MIC |  | H37Rv | 1.14 µM
C[N+](C)=c1ccc2nc3c(cc(Nc4cccc(Nc5cc6oc7cc(=[N+](C)C)ccc-7nc6c6ccccc56)n4)c4ccccc43)oc-2c1 | BACTEC | inhibition | 12.5 µg/mL | H37Rv | 98%
Clc1ccc(C2=NNc3c4ccccc4c4c5cc(Cl)ccc5nc-4n3C2)cc1 | broth dilution / resazurin | MIC |  | H37Rv | 6.25 µg/mL
CC(=O)O[C@H]1C[C@H](O[C@H]2[C@@H](O)C[C@H](O[C@H]3[C@@H](O)C[C@H](O[C@H]4CC[C@@]5(C)[C@H](CC[C@@H]6[C@@H]5CC[C@]5(C)[C@@H](C7=CC(=O)OC7)CC[C@]65O)C4)O[C@@H]3C)O[C@@H]2C)OC(C)[C@H]1O[C@@H]1O[C@H](CO)[C@@H](O)[C@H](O)[C@H]1O | BACTEC | MIC |  | H37Rv | ≥128 µg/mL
NNC(=O)c1ccc(Br)cc1 |  | MIC50 |  | ATCC35801 | 21.5 µg/mL
Cc1cccc(NC(=O)c2cnc(C(C)(C)C)c(Cl)n2)c1Br |  | MIC |  | H37Rv | 16 µg/mL
O=[N+]([O-])c1cccc2c(C3CCCCC3)cc(C3CCCCC3)nc12 |  | MIC |  | Rifampicin-resistant | 6.25 µg/mL
CC[C@H]1OC(=O)[C@H](C)C(=O)[C@H](C)[C@@H](O[C@@H]2O[C@H](C)C[C@H](N(C)C)[C@H]2O)[C@](C)(OC)C[C@@H](C)C(=O)[C@H](C)[C@H]2N(CC/C=C/c3ccccc3)C(=O)O[C@]12C |  | MIC |  |  | 4 µM
OC12CCCCC1Oc1ccc3ccccc3c12 | BACTEC | inhibition | 12.5 µg/mL | H37Rv | 11%
CCOC(=O)NC1=NC(C(=O)c2ccc(C)cc2)CS1 |  | MIC |  | H37Rv | 0.2 µg/mL
O=Cc1sc(-c2ccncc2)nc1OCc1cnnn1-c1cc2ccc(O)cc2oc1=O | resazurin | MIC |  | H37Rv | 112 µM
Nc1ccn([C@@H]2O[C@H](C(O[C@@H]3O[C@H](CO)[C@@H](O)[C@H](N)[C@H]3O)[C@@H](O)[C@@H](O)[C@@H](O)[C@@H](O)CO)[C@@H](N)[C@H](O)[C@H]2O)c(=O)n1 |  | MIC |  | H37Rv | >12.5 µg/mL
CC[C@H](CC[C@@H](C)[C@H]1CCC2C3CC=C4C(C)(C)[C@@H](O[C@@H]5O[C@H](CO)[C@@H](O)[C@H](O)[C@H]5O)CC[C@]4(C)C3CC[C@@]21C)C(C)C |  | MIC |  |  | 128 µg/mL
COc1ccc2[nH]c3nc(-n4[nH]c(=O)c5ccccc5c4=O)c4ccccc4c3c2c1 | broth dilution / resazurin | MIC |  | H37Rv | 3.125 µg/mL
Clc1ccccc1N1COc2ccccc2C1 | absorbance | MIC |  |  | 2 µg/mL
COC(=O)NC1=NC(C(=O)c2ccc(Cl)cc2)CS1 |  | MIC |  | H37Rv | 0.75 µg/mL
CC(N=c1cc2n(-c3ccc(Cl)cc3)c3ccccc3nc-2cc1Nc1ccc(Cl)cc1)c1ccccc1 |  | MIC |  | TAC-R | <0.1 µg/mL
NNC(=O)c1ccncc1 |  | MIC50 |  | ATCC35801 | 16.7 µg/mL
COC(=O)NC1=NC(C(=O)c2ccccc2)CS1 |  | MIC |  | H37Rv | >200 µg/mL
c1ccc(-c2cc(CNc3nc4ccccc4s3)on2)cc1 | resazurin | inhibition | 6.25 µg/mL | H37Rv | 16%
COC(=O)NC1=NC(C(=O)c2ccc(OC)cc2)CS1 |  | MIC |  | H37Rv | 4 µg/mL
CCCCCCCCCCCCCCCC(=O)N(O)CCCC[C@H](NC(=O)C1COC(c2ccccc2O)=N1)C(=O)OC[C@H](NC(=O)OC(C)(C)C)C(=O)NC1CCCCN(O)C1=O |  | MIC |  | H37Rv | >12.5 µg/mL
O=C(NCCO)C(=O)N/N=C/c1ccc([N+](=O)[O-])o1 |  | MIC |  | KM-R | 6.3 µg/mL
CC1(C)[C@@H]2CC[C@@]1(C)[C@H](NC(=O)/C=C/C=C/c1ccc3c(c1)OCO3)C2 | resazurin | MIC |  | H37Rv | 0.35 µM
O=[N+]([O-])c1cccc2ccc(C3CCCCC3)nc12 |  | MIC |  | H37Rv | 6.25 µg/mL
O=c1c2ccccc2c(-c2ccccc2)nn1-c1nc2[nH]c3ccc(Cl)cc3c2c2ccccc12 | broth dilution / resazurin | MIC |  | H37Rv | 12.5 µg/mL
NO |  | MIC |  | H37Rv | 17.5 µg/mL
CCC#CCCCCCCCCN1C(=O)O[C@]2(C)[C@@H](CC)OC(=O)[C@H](C)C(=O)[C@H](C)[C@@H](O[C@@H]3O[C@H](C)C[C@H](N(C)C)[C@H]3O)[C@](C)(OC)C[C@@H](C)C(=O)[C@H](C)[C@@H]12 |  | MIC |  |  | 2.67 µM
COc1ccc(OC)c(NC(=O)Nc2c(C)n(C)n(-c3ccccc3)c2=O)c1 | BACTEC | MIC bound |  | H37Rv | >12.8 µg/mL
Cc1cccc(NC(=O)c2cncc(Cl)n2)c1Br |  | MIC |  | H37Rv | >128 µg/mL
Cc1ccnc(NS(=O)(=O)c2ccc(N=Nc3c(O)n(-c4ccccc4)n(-c4ccccc4)c3=O)cc2)n1 | BACTEC | MIC |  | H37Rv | ≥12.8 µg/mL
O=[N+]([O-])c1ccc(N2COc3ccccc3C2)cc1 | absorbance | MIC |  |  | 1.71 µg/mL
O=Cc1sc(-c2ccccn2)nc1OCc1cnnn1-c1cc2ccc(O)cc2oc1=O | resazurin | MIC |  | H37Rv | 112 µM
CC[C@H]1OC(=O)[C@H](C)C(=O)[C@H](C)[C@@H](O[C@@H]2O[C@H](C)C[C@H](N(C)C)[C@H]2O)[C@](C)(OC)C[C@@H](C)/C(=N\OC2CCCN(C(=O)OCc3ccccc3)C2)[C@H](C)[C@@H](O)[C@]1(C)O |  | MIC |  |  | 64 µM
CC(C)(C)OC(=O)N1CCCC1C1=N/C(=C\c2ccccc2)C(=O)O1 | BACTEC | MIC bound |  | H37Rv | >12.5 µg/mL
COc1ccc(C2=NNc3c4ccccc4c4c5cc(C)ccc5nc-4n3C2)cc1 | broth dilution / resazurin | MIC |  | H37Rv | 0.2 µg/mL
CSC(=S)N(C)/N=C/c1cccc(C)n1 | BACTEC | MIC |  | H37Rv | ≥128 µg/mL
CCCCCOc1c(C(C)=O)cc(N)c2nccc(CC)c12 |  | inhibition | 6.25 µg/mL | H37Rv | 99%
C(=N\N1CN(/N=C/c2ccccc2)[C@H](c2ccccc2)C1c1ccccc1)/c1ccccc1 | BACTEC | inhibition | 12.5 µg/mL | H37Rv | 0%
CC(C)(C)c1nnc2c3ccccc3c3c4cc(Cl)ccc4[nH]c3n12 | broth dilution / resazurin | MIC |  | H37Rv | 1.6 µg/mL
O=c1[nH]c2nc(Cl)nc(Cl)c2[nH]1 | BACTEC | MIC bound |  | H37Rv | >12.5 µg/mL
C[C@@H]1CC[C@]2(C)CC[C@]3(C)C(=CCC4[C@@]5(C)CC[C@@H](O)C(C)(C)C5CC[C@]43C)C2C1 |  | MIC |  |  | >128 µg/mL
Nc1ccc(C(=O)O)c(O)c1 | resazurin | MIC |  | H37Rv | 0.125 µg/mL
C[C@H]1NCc2cc(-c3ccc4c(=O)c(C(=O)O)cn(C5CC5)c4c3OC(F)F)ccc21 |  | MIC50 |  | 67 clinical isolates | 2 µg/mL
CC[C@H]1OC(=O)[C@H](C)C(=O)[C@H](C)[C@@H](O[C@@H]2O[C@H](C)C[C@H](N(C)C)[C@H]2O)[C@](C)(OC)C[C@@H](C)C(=O)[C@H](C)[C@H]2N(C/C=C/Cc3ccccc3)C(=O)O[C@]12C |  | MIC |  |  | 1 µM
CO[C@H]1/C=C/O[C@@]2(C)Oc3c(C)c(O)c4c(O)c(c5c(c4c3C2=O)NC2(CCN(CC(C)C)CC2)N=5)=NC(=O)/C(C)=C\C=C\[C@H](C)[C@H](O)[C@@H](C)[C@@H](O)[C@@H](C)[C@H](OC(C)=O)[C@@H]1C |  | MIC50 |  | 22 strains | 0.025 µg/mL
CCc1ccnc2c(N)cc(C(C)=O)c(OC(C)C)c12 |  | MIC |  | H37Rv | >6.25 µg/mL
CC(=O)NC[C@H]1CN(c2ccc(N3CCOCC3)c(F)c2)C(=O)O1 |  | MIC50 |  | 42 isolates | 0.5 µg/mL
Cc1ccc(NC(=O)c2cnccn2)cc1I |  | MIC |  | H37Rv | <2 µg/mL
Cc1ccccc1N1COc2ccccc2C1 | absorbance | MIC |  |  | 6.1 µg/mL
CC[C@@H](CO)NCCN[C@@H](CC)CO | resazurin | MIC |  | H37Rv | 7.22 µM
COC(=O)NC1=NC(C(=O)c2ccc(C)cc2)CS1 |  | MIC |  | H37Rv | >50 µg/mL
Nc1ccc2cc(-n3nncc3COc3nc(-c4ccncc4)sc3C=O)c(=O)oc2c1 | resazurin | MIC |  | H37Rv | 27.99 µM
CS(=O)(=O)O.N/C(=N\O)c1ccc2oc(/C=C/c3cc4cc(/C(N)=N/O)ccc4o3)cc2c1 | BACTEC | MIC bound |  | H37Rv | >12.5 µg/mL
CCCOc1c(C(C)=O)cc([N+](=O)[O-])c2nccc(CC)c12 |  | inhibition | 6.25 µg/mL | H37Rv | 0%
O=NNc1cnc(Br)cn1 | BACTEC | inhibition | 12.5 µg/mL | H37Rv | 0%
COC(=O)NC1=NC(C(=O)c2ccc(Cl)c(Cl)c2)CS1 |  | MIC |  | H37Rv | >50 µg/mL
C[C@]12CC[C@H](OC3OC(CO)C(O)C(O)C3O)C[C@H]1CC[C@@H]1[C@@H]2CC[C@]2(C)[C@@H](C3=CCOC3=O)CC[C@]12O | BACTEC | MIC |  | H37Rv | ≥12.8 µg/mL
C[C@H]1COc2c(N3CCN(C)CC3)c(F)cc3c(=O)c(C(=O)O)cn1c23 | resazurin | MIC |  | H37Rv | 0.5 µg/mL

7 of the rows above, restated:

S=C(S)N1CCCC1 ; read by: BACTEC ; read-out: MIC ; strain: H37Rv ; result: 0.4 µg/mL
Nc1ccc(C(=O)O)c(O)c1 ; read by: resazurin ; read-out: MIC ; strain: H37Rv ; result: 0.125 µg/mL
Cc1ccnc(NS(=O)(=O)c2ccc(N=Nc3c(O)n(-c4ccccc4)n(-c4ccccc4)c3=O)cc2)n1 ; read by: BACTEC ; read-out: MIC ; strain: H37Rv ; result: ≥12.8 µg/mL
Nc1ccc2cc(-n3nncc3COc3nc(-c4ccncc4)sc3C=O)c(=O)oc2c1 ; read by: resazurin ; read-out: MIC ; strain: H37Rv ; result: 27.99 µM
CC(N=c1cc2n(-c3ccc(Cl)cc3)c3ccccc3nc-2cc1Nc1ccc(Cl)cc1)c1ccccc1 ; read-out: MIC ; strain: TAC-R ; result: <0.1 µg/mL
CC[C@@H](CO)NCCN[C@@H](CC)CO ; read by: resazurin ; read-out: MIC ; strain: H37Rv ; result: 7.22 µM
O=c1c2ccccc2c(-c2ccccc2)nn1-c1nc2[nH]c3ccc(Cl)cc3c2c2ccccc12 ; read by: broth dilution / resazurin ; read-out: MIC ; strain: H37Rv ; result: 12.5 µg/mL